System: Escherichia coli
Experiment: Resistance index, ratio of MIC for antibacterial activity against Escherichia coli ATCC 25922 treated over 35 serial passage by sequential passaging method to MIC for antibacterial activity against Escherichia coli ATCC 25922 incubated for 18 to 24 hrs by broth microdilution method
Format: functional

CC(C)C[C@H](NC(=O)[C@H](CCCNC(=N)N)NC(=O)[C@H](Cc1c[nH]c2ccccc12)NC(=O)[C@H](CCCNC(=N)N)NC(=O)[C@@H](NC(=O)[C@H](CCCCN)NC(=O)[C@H](Cc1c[nH]c2ccccc12)NC(=O)[C@H](CCCNC(=N)N)NC(=O)[C@H](CC(C)C)NC(=O)[C@H](CCCNC(=N)N)NC(=O)[C@@H](N)Cc1c[nH]c2ccccc12)[C@@H](C)O)C(=O)N[C@@H](CCCCN)C(N)=O
Ratio: 1 - 2
